{"source": "paper PMC10516667", "about": "“Structures and implications of the C962R protein of African swine fever virus” (2023)", "target": "AEP domain of C962R (aa 21–272) (African swine fever virus, UniProt A0A0C5B022)", "experiment": "crystal structure of AEP-dCTP-Mn2+ complex", "settings": "polymerase active site, crystallised at pH 8.0, 18 °C"}
{"smiles": "Nc1ccn([C@H]2C[C@H](O)[C@@H](COP(=O)(O)OP(=O)(O)OP(=O)(O)O)O2)c(=O)n1", "values": [{"measurement": "crystal structure of AEP-dCTP-Mn2+ complex", "result": "the dCTP was captured at the active site of the protein"}]}
